Source: publication PMC7245249 (Biomedical Journal, 2020)

Assay: in vitro
Details: human

## COc1ccc(C[C@H]2NC[C@H](O)[C@H]2OC(C)=O)cc1 [Anisomycin]
  CC50: 22.8 ± 0.94 µM
